PubChem BioAssay AID1259414 | Drosophila RNAi Screening Center | 2018
In all, the deposit lists about 24,000 reagents; shown is a random part of those that have a named target and a result. Over the whole deposit, about 1,210 (5%) got an active call. 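Inactive calls also include excluded dsRNAs with several or no targets, genes unexpressed in JW18, and well A1, regardless of score.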 Names joined by + are all predicted targets of the reagent.

Assay: 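Fly genes that alter Wolbachia amount inside host cells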 (primary screen)
System: Drosophila JW18 cells infected with Wolbachia
Reagent: long dsRNA against Drosophila genes, 0.25 µg dsRNA per well of a 384-well plate
Duration: 5 days
Challenge: cells persistently infected with Wolbachia before knock-down; no added drug
Measurement: 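Imaged fluorescence in situ signal for Wolbachia 23S rRNA per DAPI-counted host cell, given as a robust z-score within each plate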
Direction: Wolbachia per cell robust z: higher = more Wolbachia per host cell than the plate typical
Hit rule: 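Active if absolute robust z reaches 1.5 in two or more of three replicates, leaving out multi- or no-target dsRNAs, genes unexpressed in JW18 and A1 wells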

| Target gene | dsRNA | Wolbachia per cell robust z, rep 1 | Wolbachia per cell robust z, rep 2 | Wolbachia per cell robust z, rep 3 | outcome |
| --- | --- | --- | --- | --- | --- |
| CG17097 | DRSC02569 | -0.0369 | 0.597 | -0.185 | inactive |
| CG17097 | DRSC24178 | 0.376 | -0.475 | -0.531 | inactive |
| Pfdn5 (Prefoldin 5) | DRSC16183 | 1.19 | 1.49 | -0.0663 | inactive |
| ProtA (Protamine A) | DRSC03372 | -1.26 | -1.34 | -0.363 | inactive |
| TotE (Turandot E) | DRSC21355 | 0.913 | 1.01 | -0.539 | inactive |
| mah (mahogany) | DRSC14645 | -0.0695 | 0.652 | -0.649 | inactive |
| mah (mahogany) | DRSC28300 | -0.0187 | 0.29 | 0.526 | inactive |
| mRpL20 (mitochondrial ribosomal protein L20) | DRSC09828 | -0.627 | 0.127 | 0.352 | inactive |
| Gr28b (Gustatory receptor 28b) | DRSC02291 | 0.439 | 3.76 | 0.00425 | inactive |
| Gr28b (Gustatory receptor 28b) | DRSC02292 | 0.0905 | 0.852 | 1.46 | inactive |
| Gr28b (Gustatory receptor 28b) | DRSC29459 | -1.83 | -1.11 | -0.747 | inactive |
| Topors (Topoisomerase I-interacting protein) | DRSC06531 | -0.742 | -0.113 | 0.412 | inactive |
| CG42507 + Trl | DRSC25045 | 1.09 | 0.904 | -2.4 | inactive |
| CG13810 | DRSC08344 | -0.396 | -2.84 | -0.863 | inactive |
| CG13810 | DRSC22838 | 0.299 | 0.689 | 0.204 | inactive |
| CG13810 | DRSC27859 | 0.599 | 0.938 | 0.451 | inactive |
| antr (antares) | DRSC22392 | 0.985 | -2.88 | -0.907 | inactive |
| Rassf (Ras association family member) | DRSC15612 | -0.636 | -0.805 | -0.318 | inactive |
| Rassf (Ras association family member) | DRSC28891 | -1.05 | -0.418 | 0.0282 | inactive |
| CG5071 | DRSC15710 | -1.52 | 0.0972 | 0.468 | inactive |
| CG5071 | DRSC22570 | 0.682 | 0.22 | 0.656 | inactive |
| CG5071 | DRSC24514 | -0.65 | 1.11 | 1.19 | inactive |
| CG8072 | DRSC10960 | 0.674 | -0.0849 | -0.0181 | inactive |
| CG34430 | DRSC06499 | -2.54 | -0.677 | -5.05 | active |
| luna | DRSC05253 | 0.613 | 1.83 | -0.582 | inactive |
| luna | DRSC24992 | 0.154 | -0.875 | -2.21 | inactive |
| IntS10 (Integrator 10) | DRSC08173 | 0.248 | 0.983 | -0.95 | inactive |
| Osi16 (Osiris 16) | DRSC12135 | 0.291 | -9.01 | -0.695 | inactive |
| Osi16 (Osiris 16) | DRSC21323 | 0.297 | -0.588 | 0.624 | inactive |
| ATbp ((A+T)-stretch binding protein) | DRSC20906 | 0.51 | 0.452 | 0.588 | inactive |
| ATbp ((A+T)-stretch binding protein) | DRSC29661 | 0.934 | 0.897 | 0.753 | inactive |
| CG9777 | DRSC20208 | 1.42 | 1.34 | -0.614 | inactive |
| Fmo-2 (Flavin-containing monooxygenase 2) | DRSC04983 | 0.236 | -0.293 | 0.447 | inactive |
| CR33317 (pseudo) | DRSC02653 | -0.25 | 1.02 | 0.881 | inactive |
| Fign (Fidgetin) | DRSC00592 | -0.923 | 0.0971 | -0.541 | inactive |
| CG1103 | DRSC24616 | -0.3 | 0.206 | 0.536 | inactive |
| CG8206 | DRSC20093 | -2.53 | -1.47 | -0.121 | inactive |
| CG14984 | DRSC08442 | -0.219 | -2.07 | -0.43 | inactive |
| CG14984 | DRSC27683 | -0.309 | -0.538 | -1.37 | inactive |
| E(spl)m3-HLH (Enhancer of split m3, helix-loop-helix) | DRSC23160 | 1.11 | 0.856 | 0.825 | inactive |
| E(spl)m3-HLH (Enhancer of split m3, helix-loop-helix) | DRSC28511 | -0.467 | 0.877 | 0.401 | inactive |
| lmgA + lmgB | DRSC03566 | 0.656 | 0.174 | -0.46 | inactive |
| lmgA + lmgB | DRSC24454 | -0.712 | -0.838 | -1.53 | inactive |
| Cyp12e1 (Cytochrome P450 12e1) | DRSC16622 | 0.516 | 0.146 | 0.449 | inactive |
| Cyp12e1 (Cytochrome P450 12e1) | DRSC41511 | 0.467 | -0.167 | 0.497 | inactive |
| ImpE1 (Ecdysone-inducible gene E1) | DRSC11195 | -3.42 | 0.315 | -0.282 | inactive |
| ImpE1 (Ecdysone-inducible gene E1) | DRSC11196 | -0.275 | -0.361 | -1.35 | inactive |
| ImpE1 (Ecdysone-inducible gene E1) | DRSC24590 | -2.36 | -2.25 | -1.64 | inactive |

Already shown: an excerpt of the list.
| Target gene | dsRNA | Wolbachia per cell robust z, rep 1 | Wolbachia per cell robust z, rep 2 | Wolbachia per cell robust z, rep 3 | outcome |
| --- | --- | --- | --- | --- | --- |
| luna | DRSC05253 | 0.613 | 1.83 | -0.582 | inactive |
| luna | DRSC24992 | 0.154 | -0.875 | -2.21 | inactive |
| IntS10 (Integrator 10) | DRSC08173 | 0.248 | 0.983 | -0.95 | inactive |
| Osi16 (Osiris 16) | DRSC12135 | 0.291 | -9.01 | -0.695 | inactive |
